Results of unrelated studies side by side (data: NIAID ChemDB).

Shared fields: tests in culture; organism: Epstein-Barr virus; measure: EC50

a–b is a range or a potency band.

structure | strain or isolate | cells | method | result
CCOc1nc(N)nc2c1ncn2/C=C1/C[C@@H]1CO |  | Akata | hybridisation | <0.16 µM
O=c1[nH]c(=O)n([C@H]2C[C@H](O)[C@@H](COP3(=O)OCc4cccc(-c5ccccc5)c4O3)O2)cc1/C=C/Br |  |  | hybridisation | 33.6 µg/mL
Cc1cn([C@@H]2O[C@H](CO)[C@@H](O)[C@@H]2F)c(=O)[nH]c1=O |  | H-1 |  | <0.1 µM
CC(C)Nc1nc2cc(Cl)c(Cl)cc2n1[C@H]1O[C@@H](CO)[C@H](O)[C@@H]1O |  | Akata |  | 0.15–1.1 µM
Nc1ncc2ncn(/C=C3\CC3CO)c2n1 |  |  | ELISA | >100 µM
COc1cc(OC)c(C(=O)/C=C/c2ccc(O)cc2)c(OC)c1 |  | Akata | hybridisation | 18 µM
O=C(NCc1ccc(Cl)cc1)c1cn2c3c(cc(CN4CCOCC4)cc3c1=O)OC(c1cccnc1)C2 |  | DAUDI | ELISA | 3.4 µM
Nc1nc2c(ncn2/C=C2/CC2[C@@H](O)CO)c(=O)[nH]1 |  | Akata | hybridisation | >20 µM
CC(C)(C)COc1nc(N)nc2c1ncn2/C=C1/C[C@@H]1CO |  | Akata | hybridisation | 4.8 µM
CC(C)Nc1nc2cc(Cl)c(Cl)cc2n1[C@H]1O[C@@H](CO)[C@H](O)[C@@H]1O |  | DAUDI | ELISA | 4.3 µM
CCCCCOc1nc(N)nc2c1ncn2/C=C1/C[C@@H]1CO |  | Akata | hybridisation | 0.8 µM
CCCCCCCCCCCCCCCCCOC[C@H](COP1(=O)CO[C@@H](Cn2ccc(N)nc2=O)CO1)OCc1ccccc1 |  | DAUDI | hybridisation | >1 µM
Nc1nc2c(ncn2[C@H]2C[C@@H](O)[C@H](O)[C@@H]2O)c(=O)[nH]1 |  | DAUDI | ELISA | >50 µg/mL
Nc1ncc2ncn(/C=C3/CC3CO)c2n1 |  |  | ELISA | >100 µM
Cc1cn([C@@H]2O[C@H](CO)[C@H]2CO)c(=O)[nH]c1=O | P3HR-1 | HFF | plaque count | >100 µg/mL
Cc1cn([C@H]2O[C@@H](CO)[C@H](O)[C@H]2F)c(=O)[nH]c1=O |  | H-1 |  | <5 µM
COC(c1cn([C@H]2C[C@H](O)[C@@H](CO)O2)c(=O)[nH]c1=O)C(Br)I | P3HR-1 | RAJI | plaque count | 3 µM
Nc1ccn(C[C@@H](CO)OCP(=O)(O)O)c(=O)n1 |  | DAUDI | hybridisation | 65.6 µM
Nc1nc2c(ncn2COC(CO)CO)c(=O)[nH]1 |  | H-1 |  | 5 µM
CC(C)COc1nc(N)nc2c1ncn2/C=C1/C[C@@H]1CO |  | Akata | hybridisation | 3.4 µM
COC(=O)C(C)NP(=O)(OC[C@@H]1C/C1=C/n1cc(C)c(=O)[nH]c1=O)Oc1ccccc1 |  | H-1 | hybridisation | >20 µM
Cn1cc(C(=O)NCc2ccc(Cl)cc2)c(=O)c2cc(CN3CCOCC3)ccc21 | 2 isolates |  |  | 0.17 µM
Nc1nc(NCC2CC2)c2ncn(/C=C3/C[C@@H]3CO)c2n1 |  | P3HR-1 | ELISA | 0.6 µM
Cc1cn(/C=C2/CC2(CO)CO)c(=O)[nH]c1=O |  | P3HR-1 | ELISA | 4.4 µM
Nc1nc(OCc2ccccc2)c2ncn(/C=C3/C[C@@H]3CO)c2n1 |  | Akata | hybridisation | 2.6 µM
Cn1cc(C(=O)NCc2ccc(Cl)cc2)c(=O)c2cc(CN3CCOCC3)ccc21 |  | DAUDI | hybridisation | 2.6 µM
CN[C@H]1C[C@@H](n2cnc3c(N)ncnc32)[C@H](O)[C@@H]1O |  | HFF |  | 24.9 µg/mL
O=c1[nH]c(=O)n([C@H]2C[C@H](O)[C@@H](CO)O2)cc1/C=C/Br |  | P3HR-1 | cytopathic effect | 0.055 µM
CC(N=[N+]=[N-])c1cn([C@H]2C[C@H](O)[C@@H](CO)O2)c(=O)[nH]c1=O | P3HR-1 | HFF | cytopathic effect | 44.6 µM
COC(=O)C(C)NP(=O)(OC[C@@H]1C/C1=C/n1cc(N)c(=O)[nH]c1=O)Oc1ccccc1 |  | H-1 | hybridisation | 16 µM
Nc1ncnc2c1ncn2/C=C1/CC1(CO)CO |  | H-1 | hybridisation | 7 µM
Nc1nc2ncn(/C=C3\C(F)C3(CO)CO)c2c(=O)[nH]1 |  | Akata | hybridisation | >100 µM
CN1CCN(n2cc(C(=O)NCc3ccc(Cl)cc3)c(=O)c3cc(CN4CCOCC4)ccc32)CC1 |  | HFF | plaque count | 0.11 µM
Nc1nc2c(ncn2C=C2CC2CO)c(=O)[nH]1 |  | H-1 | ELISA | 50 µM
COC(c1cn([C@H]2C[C@H](O)[C@@H](CO)O2)c(=O)[nH]c1=O)C(Br)Br | P3HR-1 | RAJI | plaque count | >22.5 µM
COc1ncnc2c1ncn2[C@@H]1O[C@H](CO)[C@@H](O)[C@@H]1O |  | P3HR-1 | cytopathic effect | 50 µM
COC(=O)C(C)NP(=O)(OC[C@@H]1C/C1=C\n1cc(C)c(=O)[nH]c1=O)Oc1ccccc1 |  | H-1 | hybridisation | >20 µM
CCCCCCCCCCCCOCCCOP1(=O)CO[C@@H](Cn2ccc(N)nc2=O)CO1 |  | DAUDI | hybridisation | >0.8 µM
O[C@@H]1[C@H](O)[C@H](O)CO[C@H]1n1c(Br)nc2cc(Cl)c(Cl)cc21 |  | DAUDI | hybridisation | 10 µM
COC(=O)[C@H](C)NP(=O)(OC[C@@H]1C[C@]12C[C@@H]2n1cnc2c(N)ncnc21)Oc1ccccc1 |  |  |  | 2.8 µM
CC1(C)[C@@H](O[C@H]2O[C@H](C(=O)O)[C@@H](O)[C@H](O)[C@H]2O[C@@H]2O[C@H](C(=O)O)[C@@H](O)[C@H](O)[C@H]2O)CC[C@]2(C)[C@H]3C(=O)C=C4[C@@H]5C[C@@](C)(C(=O)O)CC[C@]5(C)CC[C@@]4(C)[C@]3(C)CC[C@@H]12 |  | RAJI |  | 40 µM
CCCCCCCC/C=C\CCCCCCCOCCCOP(=O)(O)CO[C@H](CO)Cn1ccc(N)nc1=O |  | DAUDI | hybridisation | 0.4 µM
OC[C@H]1O[C@@H](n2c(Br)nc3cc(Cl)c(Cl)cc32)[C@H](O)[C@@H]1O |  | DAUDI | ELISA | >74 µM
CCOC(=O)CC1OP(=O)(OC[C@H]2O[C@@H](n3cc(/C=C/Br)c(=O)[nH]c3=O)C[C@@H]2O)Oc2cccc(Cl)c21 |  |  | hybridisation | 3.98 µg/mL
COC(c1cn([C@H]2C[C@H](O)[C@@H](CO)O2)c(=O)[nH]c1=O)C(I)I | P3HR-1 | RAJI | plaque count | 26.4 µM
CCCCCCCCCCCCCCCCCCOCCCOP1(=O)CO[C@@H](Cn2ccc(N)nc2=O)CO1 |  | DAUDI | hybridisation | >1 µM
Nc1nc(SC2CCCC2)c2ncn(/C=C3/C[C@@H]3CO)c2n1 |  | Akata | hybridisation | 1.4 µM
O=c1[nH]c(=O)n([C@H]2C[C@H](O)[C@@H](CO)O2)cc1C(O)C(Cl)Cl | P3HR-1 | RAJI | plaque count | 22.3 µM

For reference, 7 entries again:

structure,strain or isolate,cells,method,result
COc1ncnc2c1ncn2[C@@H]1O[C@H](CO)[C@@H](O)[C@@H]1O,,P3HR-1,cytopathic effect,50 µM
CC(C)COc1nc(N)nc2c1ncn2/C=C1/C[C@@H]1CO,,Akata,hybridisation,3.4 µM
CC(C)Nc1nc2cc(Cl)c(Cl)cc2n1[C@H]1O[C@@H](CO)[C@H](O)[C@@H]1O,,DAUDI,ELISA,4.3 µM
Cc1cn(/C=C2/CC2(CO)CO)c(=O)[nH]c1=O,,P3HR-1,ELISA,4.4 µM
CC1(C)[C@@H](O[C@H]2O[C@H](C(=O)O)[C@@H](O)[C@H](O)[C@H]2O[C@@H]2O[C@H](C(=O)O)[C@@H](O)[C@H](O)[C@H]2O)CC[C@]2(C)[C@H]3C(=O)C=C4[C@@H]5C[C@@](C)(C(=O)O)CC[C@]5(C)CC[C@@]4(C)[C@]3(C)CC[C@@H]12,,RAJI,,40 µM
CCCCCCCCCCCCOCCCOP1(=O)CO[C@@H](Cn2ccc(N)nc2=O)CO1,,DAUDI,hybridisation,>0.8 µM
O=c1[nH]c(=O)n([C@H]2C[C@H](O)[C@@H](COP3(=O)OCc4cccc(-c5ccccc5)c4O3)O2)cc1/C=C/Br,,,hybridisation,33.6 µg/mL

ECn: concentration that inhibits the pathogen or its effect by n%. An empty or dashed field is not shown. Rows are shuffled and stem from different studies.